{
  "source": "paper PMC3723252",
  "about": "“Trypanocidal Activity of Thioamide-Substituted Imidazoquinolinone: Electrochemical Properties and Biological Effects” (Evidence-based Complementary and Alternative Medicine : eCAM, 2013)",
  "test_system": "bloodstream trypomastigotes",
  "test": "Trypanocidal effect on bloodstream trypomastigotes (24 h, mouse blood)",
  "assay_type": "cell-based, Trypanosoma cruzi",
  "conditions": "for Trypomastigotes SI: CC50 Vero cells / IC50 trypomastigotes",
  "method": "Trypanosoma cruzi epimastigotes (Tulahuen strain) were grown as previously described. Bloodstream trypomastigotes were obtained from infected CF1 mice by cardiac puncture. Tulahuen strain expressing the β-galactosidase gene was kindly provided by Dr Buckner (University of Washington, USA).\nThe trypanocidal effects of C1, C2, C3, D and Bnz were also tested on bloodstream trypomastigotes according to a standard WHO protocol slightly modified. Briefly, mouse blood containing trypomastigotes was treated with different concentrations of each compound (0.30 to 350 μM) or Bnz (0.38 to 38 μM). Plates were incubated for 24 h, and surviving parasites were counted in a Neubauer chamber as previously described. Results were expressed as the percentage of lysed parasites (%L) relative to the number of parasites in the control: %L = [1 − (CDt/(CDc)] × 100, where CDt and CDc represent the cellular density of treated and untreated parasites, respectively.\nThe results presented are representative of three to four separate experiments, performed in duplicates or triplicates. All data are expressed as means ± standard errors of the mean (SEM). To calculate the IC50 values, the %I or %L values were plotted against the log of drug concentration (μM) and fitted with a straight line determined by a linear regression (Sigma Plot 10 software). The significance of differences was evaluated using Student' t test, taking a P < 0.05 as significant. Flow cytometry data were analyzed employing the WinMDI 2.9 software.",
  "data": [
    {"smiles": "O=C(Cn1ccnc1[N+](=O)[O-])NCc1ccccc1", "note": "[Bnz, Benznidazole, reference compound]", "values": [
      {"measurement": "Trypomastigotes SI", "value": 2.7}
    ]},
    {"smiles": "O=c1c2ccccc2c(C(=S)Nc2ccccc2)c2n1CCN2", "note": "[Compound C1, N-phenyl-5-oxo-1,2,3,5-tetrahydroimidazo[1,2-b]isoquinolin-10-carbothioamide]", "values": [
      {"measurement": "Trypomastigotes SI", "value": ">2.9"},
      {"measurement": "times more active than C2 and C3 on trypomastigotes", "setting": "from IC50 values of Table 1", "value": 10, "unit": "times"}
    ]},
    {"smiles": "O=c1c2ccccc2c(C(=S)Nc2ccc(Cl)cc2)c2n1CCN2", "note": "[Compound C2, N-(4-chlorophenyl)-5-oxo-1,2,3,5-tetrahydroimidazo[1,2-b]isoquinolin-10-carbothioamide]", "values": [
      {"measurement": "Trypomastigotes SI", "value": ">0.3"}
    ]},
    {"smiles": "Cc1ccc(NC(=S)c2c3n(c(=O)c4ccccc24)CCN3)cc1", "note": "[Compound C3]", "values": [
      {"measurement": "Trypomastigotes SI", "value": ">0.4"}
    ]}
  ]
}
